Compound potency records, mixed from different reports. Data source: NIAID ChemDB in PubChem.

All rows: tests on isolated targets; organism: HIV-1; protein: Protease; endpoint: inhibition

Inhibition is in % at the dose shown (toxicity tests: loss of growth or viability). Conditions beyond the fields shown may differ between rows. Blank or dashed fields: not listed here.

{"compound": "CC(C)(C)NC(=O)[C@H]1N(C(=O)[C@@H](O)[C@H](Cc2ccccc2)NC(=O)CC(C)(C)C(=O)O)CSC1(C)C", "dose": "0.05 µM", "value": "76.3%"}
{"compound": "CC[C@H](C)[C@H](NC(=O)[C@@H]1CCCN1C(=O)[C@H](O)[C@H](Cc1ccccc1)NC(=O)[C@H](CC(N)=O)NC(=O)[C@H](Cc1ccccc1)NC(=O)[C@@H](N)CO)C(=O)N[C@H](C(N)=O)C(C)C", "dose": "5 µM", "value": "96.8%"}
{"compound": "CC(=O)O[C@H]1CC(=O)OC(C)(C)[C@@H]2CC(=O)[C@]3(C)[C@H](CC[C@@]4(C)[C@H](c5ccoc5)OC(=O)[C@H]5O[C@]543)[C@@]12C", "dose": "20 µM", "value": "60%"}
{"compound": "CC(C)(C)NC(=O)[C@H]1N(C(=O)[C@@H](O)[C@H](Cc2ccccc2)NC(=O)CC(C)(C)C(=O)O)CSC1(C)C", "dose": "76.3 µM", "value": "0.05%"}
{"compound": "CC1=CC(C)(C)Nc2ccc(OC(=O)c3cccs3)cc21", "dose": "150 µM", "value": "35.92%"}
{"compound": "CC(C(=O)O)C(C)C(=O)N[C@@H](Cc1ccccc1)[C@H](O)C(=O)N1CSC(C)(C)[C@H]1C(=O)NC(C)(C)C", "dose": "0.05 µM", "value": "77.5%"}
{"compound": "CCOc1ccccc1CNc1nc2nc3c(c(=O)n2[nH]1)CCC3", "dose": "150 µM", "value": "24.56%"}
{"compound": "Cc1cccc(C)c1OCC(=O)N[C@@H](Cc1ccccc1)[C@H](O)C(=O)N1CSC(C)(C)[C@H]1C(=O)NC(C)(C)C", "strain": "IIIB", "dose": "0.05 µM", "value": "56%"}
{"compound": "CC(C)(C)NC(=O)[C@@H]1CSCN1C(=O)[C@@H](O)[C@H](Cc1ccccc1)NC(=O)CCC(=O)O", "dose": "73.7 µM", "value": "5%"}
{"compound": "CC[C@H](C)/C=C(C)/C=C/C(=O)Cc1cc(O)c(C)c(O)c1C=O", "dose": "100 µg/mL", "value": "0%"}
{"compound": "CC1=CC(C)(C)Nc2ccc(OC(=O)c3cccnc3)cc21", "dose": "150 µM", "value": "41.14%"}
{"compound": "COC(=O)CCCC[C@H]1[C@@H]2[C@H](CS1(=O)=O)N(Cc1cccc(Br)c1)C(=O)N2Cc1cccc(Br)c1", "dose": "80 µM", "value": "90%"}
{"compound": "Cc1cc(=O)[nH]c2ccc(S(=O)(=O)NCc3ccccc3)cc12", "dose": "150 µM", "value": "32.26%"}
{"compound": "Cc1cccc(C)c1OCC(=O)N[C@@H](Cc1ccccc1)[C@H](O)C(=O)N1CSC(C)(C)[C@H]1C(=O)NC(C)(C)C", "dose": "95.9 µM", "value": "0.05%"}
{"compound": "CC1=CC(C)(C)Nc2ccc(OC(=O)c3ccccc3Br)cc21", "dose": "150 µM", "value": "34.67%"}
{"compound": "CC(C)(C)NC(=O)[C@@H]1CCCN1C(=O)[C@@H](O)[C@H](Cc1ccccc1)NC(=O)[C@H](CC(N)=O)NC(=O)c1ccc2ccccc2n1", "dose": "0.05 µM", "value": "72.7%"}

Repeating the first 2 entries:

compound,strain,dose,value
CC(C)(C)NC(=O)[C@H]1N(C(=O)[C@@H](O)[C@H](Cc2ccccc2)NC(=O)CC(C)(C)C(=O)O)CSC1(C)C,,0.05 µM,76.3%
CC[C@H](C)[C@H](NC(=O)[C@@H]1CCCN1C(=O)[C@H](O)[C@H](Cc1ccccc1)NC(=O)[C@H](CC(N)=O)NC(=O)[C@H](Cc1ccccc1)NC(=O)[C@@H](N)CO)C(=O)N[C@H](C(N)=O)C(C)C,,5 µM,96.8%